# Assay results from ChEMBL document CHEMBL1127929, “The synthesis and serine -lactamase inhibitory activity of some phosphonamidate analogues of dipeptides” (1994).
# Chains of the proteins cited; added tags and fusions are not shown.
# UniProt P62593, whole entry: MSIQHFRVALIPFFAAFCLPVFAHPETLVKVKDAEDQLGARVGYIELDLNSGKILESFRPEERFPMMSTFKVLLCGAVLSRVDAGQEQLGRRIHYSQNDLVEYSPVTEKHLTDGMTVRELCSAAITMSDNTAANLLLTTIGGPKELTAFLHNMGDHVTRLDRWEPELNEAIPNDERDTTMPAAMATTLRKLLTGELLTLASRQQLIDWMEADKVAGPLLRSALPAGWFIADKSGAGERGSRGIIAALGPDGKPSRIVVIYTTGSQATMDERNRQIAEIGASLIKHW
# Target: Beta-lactamase TEM (Escherichia coli) (UniProt P62593)
row,SMILES,MIC
1,CC1(C)S[C@@H]2[C@H](NC(=O)C(N)c3ccc(O)cc3)C(=O)N2[C@H]1C(=O)O.O=C(NCP(=O)(O)N[C@@H](Cc1ccccc1)C(=O)O)OCc1ccccc1,> 256 mg/L
2,CC1(C)S[C@@H]2[C@H](NC(=O)C(N)c3ccc(O)cc3)C(=O)N2[C@H]1C(=O)O.O=C(O)CCNP(=O)(O)CNC(=O)OCc1ccccc1 (stereo partly specified),> 256 mg/L
3,CC1(C)S[C@@H]2[C@H](NC(=O)C(N)c3ccc(O)cc3)C(=O)N2[C@H]1C(=O)O.O=C(O)CNP(=O)(O)CNC(=O)OCc1ccccc1 (stereo partly specified),> 256 mg/L
4,CC1(C)S[C@@H]2[C@H](NC(=O)C(N)c3ccc(O)cc3)C(=O)N2[C@H]1C(=O)O.O=C(NCP(=O)(O)NC(C(=O)O)c1ccccc1)OCc1ccccc1 (stereo unspecified),> 256 mg/L
5,CC1(C)S[C@@H]2[C@H](NC(=O)C(N)c3ccc(O)cc3)C(=O)N2[C@H]1C(=O)O.O=C(NCP(=O)(O)N[C@H](Cc1ccccc1)C(=O)O)OCc1ccccc1,> 256 mg/L
6,CC1(C)S[C@@H]2[C@H](NC(=O)C(N)c3ccc(O)cc3)C(=O)N2[C@H]1C(=O)O.O=C(O)CC(NP(=O)(O)CNC(=O)OCc1ccccc1)c1ccccc1 (stereo unspecified),> 256 mg/L
